From publication PMC9100253 (International Journal of Molecular Sciences, 2022)

System: O=C(Cc1cccs1)N[C@@H]1C(=O)N2C(C(=O)O)=C(/C=C/c3ccc([N+](=O)[O-])cc3[N+](=O)[O-])CS[C@H]12
Experiment: purified protein
Conditions: PBS pH 7.4, 10 nM enzyme, residual activity

Substance: CTX-M-15 (Escherichia coli O25b:H4; S73A)
- Km: 45.6 ± 1.38 µM
- Vmax: 1.86 µmol/min
- kcat: 3.15 s⁻¹
- kcat/Km: 70000 M⁻¹ s⁻¹
